The target in the experiment is Neuronal acetylcholine receptor subunit alpha-7 (Rattus norvegicus) (UniProt Q05941). Kind of experiment: Inhibition of rat alpha7 nAChR expressed in Xenopus laevis oocytes assessed as inhibition of acetylcholine-induced current by measuring fold change by two electrode voltage-clamp assay relative to LvID. The following applies: Oocyte. On the technique in general: Two-electrode voltage clamp is typically applied to oocytes expressing channels or transporters.

Amino acid sequences for entries named in this document (tags omitted).
UniProt Q05941, whole entry, looked up: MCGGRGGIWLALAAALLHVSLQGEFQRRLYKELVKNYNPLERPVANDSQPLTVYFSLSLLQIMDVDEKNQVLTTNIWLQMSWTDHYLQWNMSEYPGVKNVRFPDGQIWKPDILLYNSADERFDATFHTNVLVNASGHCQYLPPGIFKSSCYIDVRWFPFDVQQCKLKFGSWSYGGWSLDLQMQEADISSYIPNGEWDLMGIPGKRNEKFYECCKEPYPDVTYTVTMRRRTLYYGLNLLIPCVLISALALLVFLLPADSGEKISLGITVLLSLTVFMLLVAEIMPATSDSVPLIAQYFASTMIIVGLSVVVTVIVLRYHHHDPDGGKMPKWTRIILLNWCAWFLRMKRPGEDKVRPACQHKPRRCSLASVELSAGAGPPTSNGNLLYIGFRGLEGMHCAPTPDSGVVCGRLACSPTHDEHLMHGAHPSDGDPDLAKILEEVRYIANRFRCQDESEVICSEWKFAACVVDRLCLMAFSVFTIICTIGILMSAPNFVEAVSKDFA

The structures appear in SMILES notation.

Consider `CC[C@H](C)[C@@H]1NC(=O)[C@H](CC(=O)O)NC(=O)[C@@H]2CCCN2C(=O)[C@H](CC(N)=O)NC(=O)[C@H](CCC(N)=O)NC(=O)[C@H](CC(C)C)NC(=O)[C@H]([C@@H](C)CC)NC(=O)[C@@H]2CSSC[C@H](NC(=O)C(N)CC(=O)O)C(=O)N[C@@H](CSSC[C@@H](C(N)=O)NC1=O)C(=O)N[C@@H](CO)C(=O)N[C@@H](C)C(=O)N1CCC[C@H]1C(=O)N1CCC[C@H]1C(=O)N2` (stereo partly specified), for which the fold change (FC) was determined as 2.6.

Source of the values: ChEMBL document CHEMBL6134861 (J Med Chem, 2025).
